Anti-infective test results gathered from many reports (values: NIAID ChemDB through PubChem).

Common to all: growth or infection tests; species: HIV-1; read by: MTT; measure: EC50

An empty or dashed field is not shown. Lines come from different laboratories, so protocols vary. ECn: concentration that inhibits the pathogen or its effect by n%.

SMILES,strain or isolate,cells,mutations,conditions,result
CCOC(=O)c1ccc(CN2CCC(Nc3nc(Oc4c(C)cc(/C=C/C#N)cc4C)c4sccc4n3)CC2)cc1,IIIB,MT-4,NNRTI-resistant (RT L100I),-,0.0268 µM
CCOP(=O)(OCC)C(N[C@@H](Cc1ccccc1)[C@@H](O)CN(CC(C)C)S(=O)(=O)c1ccc(OC)cc1)C(C)C,IIIB,MT-4,-,-,>13.68 µg/mL
N#CSc1ccc2nc(NC(=O)CN3C(=O)S/C(=C/c4cccc(Oc5ccccc5)c4)C3=O)sc2c1,IIIB,MT-4,-,-,>100 µM
CC(C)(C)C(=O)OCOP(=O)(OCOC(=O)C(C)(C)C)OC[C@@H]1CC[C@H](n2ccc(=O)[nH]c2=O)O1,-,CEM + CEM TK-,-,-,2.5 µM
CC(=O)Nc1ccc(S(=O)(=O)Nc2ccc(Nc3nc(Oc4c(C)cc(C#N)cc4C)c4sccc4n3)cc2)cc1,IIIB,MT-4,-,-,0.28 µM
COC(=O)N[C@H](C(=O)N[C@@H](Cc1ccccc1)C[C@H](O)[C@H](Cc1ccc(-c2cccc(N)c2)cc1)NC[C@@H](NC(=O)OC)C(C)(C)C)C(C)(C)C,pNL4-3,MT-4,-,50% human serum,20 nM
N#CSc1ccc2nc(NC(=O)CN3C(=O)S/C(=C/c4cccc(Br)c4)C3=O)sc2c1,IIIB,MT-4,-,-,>73 µM
COc1cccc2c1c(/C(O)=C1\COC(=O)C1=O)cn2Cc1ccc(F)cc1,IIIB,MT-4,-,-,0.55 µM
Cc1cc(C#N)cc(C)c1Oc1nc(NC2CCC(NCc3cccc(C(F)(F)F)c3)CC2)nc2ccsc12,IIIB,MT-4,NNRTI-resistant (RT Y188L),-,>707 µM
Cc1nc2c(c(C)c(C)n2Cc2cccnc2F)c(-c2ccc(Cl)cc2)c1[C@H](OC(C)(C)C)C(=O)O,IIIB,MT-4,-,-,0.00549 µM
CCOC(=O)c1ccc(CN2CCC(Nc3nc(Oc4c(C)cc(C#N)cc4C)c4ccsc4n3)CC2)cc1,IIIB,MT-4,NNRTI-resistant (RT Y188L),-,1.85 µM
N#CSc1ccc2nc(NC(=O)CN3C(=O)S/C(=C/c4ccccc4)C3=O)sc2c1,IIIB,MT-4,-,-,>73 µM
CCCCOP(=O)(N[C@@H](Cc1ccccc1)[C@H](O)CN(CC(C)C)S(=O)(=O)c1ccc(OC)cc1)OCCCC,IIIB,MT-4,-,-,>13.08 µg/mL
N#Cc1ccc(NC2=NS(=O)(=O)NC(Cc3ccccc3)=C2)cc1,IIIB,MT-4,-,-,>369 µM
N#CSc1ccc2nc(NC(=O)CN3C(=O)S/C(=C/c4ccc(O)cc4)C3=O)sc2c1,IIIB,MT-4,-,-,>56 µM
COc1ccccc1C(C#N)c1nc(SC(C)C)[nH]c(=O)c1C,IIIB,MT-4,-,-,0.04 µM
Cc1cc(C#N)cc(C)c1Oc1nc(Nc2ccc(NS(C)(=O)=O)cc2)nc2ccsc12,IIIB,MT-4,-,-,1.77 µM
Cc1cc(-c2ccc(C#N)cc2)cc(C)c1Oc1ccnc(S(=O)(=O)CC(=O)NCc2ccc(Cl)cc2)n1,IIIB,MT-4,-,-,>3.86 µM
O=S1(=O)N=C(Nc2cccc(Cl)c2)C=C(Cc2cccc3ccccc23)N1,IIIB,MT-4,-,-,>161 µM
COC(=O)N[C@H](C(=O)N[C@@H](Cc1ccccc1)C[C@H](O)[C@H](Cc1ccc(-c2cccc(CO)c2)cc1)NC[C@@H](NC(=O)OC)C(C)(C)C)C(C)(C)C,pNL4-3,MT-4,-,50% human serum,92 nM
Cc1cc(C#N)cc(C)c1Oc1nc(NC2CCN(Cc3ccc(S(N)(=O)=O)cc3)CC2)nc2sccc12,IIIB,MT-4,NNRTI-resistant (RT E138K),-,0.0076 µM
CCOP(=O)(OCC)C(N[C@@H](Cc1ccccc1)[C@H](O)CN(CC(C)C)S(=O)(=O)c1ccc(OC)cc1)c1ccc(C)cc1,ROD,MT-4,-,-,>2.47 µg/mL
Cc1cc2ncc(=O)n(CC(O)CO)c2cc1C,-,MT-4,-,-,0.15 µg/mL
Cc1cc(-c2ccc(C#N)cc2)cc(C)c1Oc1ccnc(S(=O)(=O)CC(=O)Nc2ccc(F)cc2)n1,IIIB,MT-4,Y181C,-,0.528 µM
CCOP(=O)(OCC)C(N[C@@H](Cc1ccccc1)[C@@H](O)CN(CC(C)C)S(=O)(=O)c1ccc(OC)cc1)c1ccccn1,ROD,MT-4,-,-,>13.93 µg/mL
Cc1cc(-c2ccc(C#N)cc2)cc(C)c1Oc1ccnc(S(=O)(=O)C(C)C(=O)NCc2ccc(F)cc2)n1,IIIB,MT-4,-,-,5.83 µM
Cc1ccc(NC2=NS(=O)(=O)NC(Cc3ccccc3)=C2)cc1C,IIIB,MT-4,-,-,>177 µM
COC(=O)N[C@H](C(=O)N[C@@H](Cc1ccccc1)C[C@H](O)[C@H](Cc1ccc(-c2ccc(F)nc2)cc1)NC[C@@H](NC(=O)OC)C(C)(C)C)C(C)(C)C,pNL4-3,MT-4,-,50% human serum,14 nM
Cc1cc(C#N)cc(C)c1Oc1nc(NC2CCN(S(=O)(=O)c3ccc(N)cc3)CC2)nc2ccsc12,IIIB,MT-4,-,-,1.35 µM
CC(C)[C@H](C)CC[C@](C)(O)[C@H]1C(=O)C[C@H]2[C@@H]3C(=O)C=C4C[C@@H](O)CC[C@]4(C)[C@H]3CC[C@@]21C,NL4-3,MT-4,Y181C IN-resistant,-,0.119 µM
CCOP(=O)(N[C@@H](Cc1ccccc1)[C@H](O)CN(CC(C)C)S(=O)(=O)c1ccc(OC)cc1)OCC,RES056,MT-4,-,-,7.4 µg/mL
C[C@H](CS)C(=O)N1CCC[C@@H]1c1nc2ncccc2[nH]1,IIIB,MT-4,-,-,0.24 µg/mL
Cc1ccnc2c1NC(=O)c1cccnc1N2C1CC1,IIIB,MT-4,-,-,0.31 µM
CCCCCCN(CCCCCC)c1ccc(/C=C2/SC(=O)N(CC(=O)Nc3nc4ccc(SC#N)cc4s3)C2=O)cc1,IIIB,MT-4,-,-,>39 µM
Cc1cc(C#N)cc(C)c1Oc1nc(Nc2ccc(NS(=O)(=O)c3ccc(C#N)cc3)cc2)nc2ccsc12,IIIB,MT-4,-,-,0.32 µM
Cc1nc2c(c(C)c(C)n2Cc2ccccc2C#N)c(-c2ccc(Cl)cc2)c1C(OC(C)(C)C)C(=O)O,IIIB,MT-4,-,-,0.103 µM
C[C@H](CSCC(N)=O)C(=O)N1CCC[C@@H]1C(=O)O,IIIB,MT-4,-,-,>3.12 µg/mL
CCCCn1c(C)c(C)c2c(-c3ccc(Cl)cc3)c(C(OC(C)(C)C)C(=O)O)c(C)nc21,IIIB,MT-4,-,-,0.016 µM
Cc1cc(/C=C/C#N)cc(C)c1Oc1ccnc(S(=O)(=O)CC(=O)NCCc2ccc(F)cc2)n1,IIIB,MT-4,-,-,0.163 µM
C[C@H](CSCCN1C(=O)c2ccccc2C1=O)C(=O)N1CCC[C@@H]1C(=O)O,IIIB,MT-4,-,-,>22.43 µg/mL
N#CSc1ccc2nc(NC(=O)CN3C(=O)S/C(=C/c4cccc(-c5ccco5)c4)C3=O)sc2c1,IIIB,MT-4,-,-,>100 µM
Cc1cc(C#N)cc(C)c1Oc1nc(NC2CCN(S(=O)(=O)c3ccccc3)CC2)nc2ccsc12,IIIB,MT-4,-,-,0.35 µM
Cc1nc2c(c(C)c(C)n2CC2CCC2)c(-c2ccc(Cl)cc2)c1[C@H](OC(C)(C)C)C(=O)O,IIIB,MT-4,-,-,0.0277 µM
Cc1cc(/C=C/C#N)cc(C)c1Oc1nc(NC2CCN(Cc3ccccc3F)CC2)nc2ccsc12,IIIB,MT-4,NNRTI-resistant (RT K103N),-,0.00688 µM
CC1=C[C@H](Cn2cnc3c(=O)[nH]cnc32)C[C@@H]1CO,IIIB,MT-4,-,-,>100 µg/mL
Cc1cc(C#N)cc(C)c1Oc1nc(Nc2ccc(NS(=O)(=O)c3ccc([N+](=O)[O-])cc3)cc2)nc2ccsc12,IIIB,MT-4,-,-,1.35 µM
N#CSc1ccc2nc(NC(=O)CCl)sc2c1,IIIB,MT-4,-,-,>8 µM
O=S1(=O)N=C(Nc2ccc(Cl)c(F)c2)C=C(Cc2ccc3ccccc3c2)N1,IIIB,MT-4,-,-,>152 µM
Cc1cc(/C=C/C#N)cc(C)c1Oc1nc(NC2CCN(Cc3ccncc3)CC2)nc2ccsc12,IIIB,MT-4,NNRTI-resistant (RT E138K),-,0.00853 µM
COC(=O)N[C@H](C(=O)N[C@@H](Cc1ccccc1)C[C@H](O)[C@H](Cc1ccc(-c2cncc(F)c2)cc1)NC[C@@H](NC(=O)OC)C(C)(C)C)C(C)(C)C,pNL4-3,MT-4,-,50% human serum,24 nM
Cc1nc2c(c(C)c(C)n2Cc2cccnc2)c(-c2ccc(Cl)cc2)c1C(OC(C)(C)C)C(=O)O,IIIB,MT-4,-,-,0.0264 µM
COC(=O)N[C@H](C(=O)N[C@@H](Cc1ccccc1)C[C@H](O)[C@H](Cc1ccc(-c2ccc(CO)nc2)cc1)NC[C@@H](NC(=O)OC)C(C)(C)C)C(C)(C)C,pNL4-3,MT-4,-,50% human serum,45 nM
Cc1ccc(/C=C2/SC(=O)N(CC(=O)Nc3nc4ccc(SC#N)cc4s3)C2=O)cc1,IIIB,MT-4,-,-,>50 µM